Pooled drug test results. Numbers come from NIAID ChemDB, via PubChem.

Shared fields: whole-cell or culture tests; organism: Mycobacterium tuberculosis

Blank or dashed fields: not listed here. A number after MIC or MFC names an inhibition level or a share of isolates. MIC bound: limit read from a one-dose screen. Rows are shuffled and stem from different studies. Inhibition is in % at the dose shown (toxicity tests: loss of growth or viability). ECn: concentration that inhibits the pathogen or its effect by n%.

SMILES | dose | method | cell line | endpoint | strain | value
CO[C@H]1/C=C/O[C@@]2(C)Oc3c(C)c(O)c4c(=O)c(c5oc6cc(N7CCN(CC(C)C)CC7)cc(=O)c6nc5c4c3=C2O)NC(=O)/C(C)=C\C=C\[C@H](C)[C@H](O)[C@@H](C)[C@@H](O)[C@@H](C)[C@H](OC(C)=O)[C@@H]1C | - | - | - | MBC | 2749 (rifampin-sensitive) | 0.025 µg/mL
c1cnc2c(SSc3cccc4cccnc34)cccc2c1 | - | - | - | MIC | H37Rv | >100 µg/mL
C[C@H]1COc2c(N3CCN(C)CC3)c(F)cc3c(=O)c(C(=O)O)cn1c23 | - | - | - | MIC90 | DRUG-SUS | 0.25 µg/mL
C/C(=C\CC1=C(O)c2ccccc2C(=O)C1=O)CO | - | BACTEC | - | MIC bound | H37Rv | ≤128 µg/mL
O=c1cc(-c2ccc(O)cc2-c2c(O)cc3oc(-c4ccc(O)cc4)cc(=O)c3c2O)oc2cc(O)cc(O)c12 | - | - | - | EC50 | H37Rv | >12.5 µg/mL
C[n+]1c(-c2ccc(/C=N\Nc3n[nH]c(=S)n3/N=C/c3ccc(-c4cn5ccsc5[n+]4C)cc3)cc2)cn2ccsc21.[Br-].[Br-] | 12.5 µg/mL | BACTEC | - | inhibition | H37Rv | 29%
Clc1ccccc1CNCCNC1CCCCCCC1 | - | - | - | MIC | - | 25 µM
CCCCCCCCCCCNCCN[C@H](CO)Cc1ccccc1 | - | - | - | MIC | - | 25 µM
CCCCN1C(=O)C=CC1=O | - | - | - | MIC | H37Rv | >100 µg/mL
CC[C@@H](CO)NCCN[C@@H](CC)CO | - | broth dilution / resazurin | - | MIC | MDR22 | 1 µg/mL
CCN(CC)CCCSSCCCN(CC)CC | - | - | - | MIC | H37Rv | >100 µg/mL
CCCCCCCCCC(=O)Oc1c2ccoc2cc2oc(=O)ccc12 | - | resazurin | - | MIC bound | H37Rv | >6.25 µg/mL
CC1=CCC([N+](=O)[O-])C(c2ccccc2)C1 | - | - | - | MIC | H37Rv | >100 µg/mL
CCCCC(CC)CN1CN(CC(CC)CCCC)CC(C)(NCCN[C@H](CO)Cc2ccccc2)C1 | - | - | - | MIC | - | 25 µM
CCCCCC(C)NCCNC[C@]1(C)CCC[C@]2(C)c3ccc(C(C)C)cc3CC[C@@H]12 | - | - | - | MIC | - | 12.5 µM
CCOC(=O)Nc1cc(NC(C)C(=O)c2ccccc2)c([N+](=O)[O-])c(N)n1 | - | - | - | EC50 | H37Rv | >12.5 µg/mL
CO[C@H]1/C=C/O[C@@]2(C)Oc3c(C)c(O)c4c(O)c(c(/C=N/N5CCN(C)CC5)c(O)c4c3C2=O)NC(=O)/C(C)=C\C=C\[C@H](C)[C@H](O)[C@@H](C)[C@@H](O)[C@@H](C)[C@H](OC(C)=O)[C@@H]1C | - | - | - | MIC | TN715 | >32 µg/mL
C1CN(P(N2CCOCC2)N2CCOCC2)CCO1 | - | - | - | MIC | H37Rv | >100 µg/mL
O=C1CC(c2ccccc2)Oc2ccc(I)cc21 | 12.5 µg/mL | - | - | inhibition | H37Rv | 27%
COc1cc2oc(-c3ccc(O)cc3)cc(=O)c2c(OC)c1OC | - | BACTEC | - | MIC bound | H37Rv | >12.5 µg/mL
CCOC(=O)Nc1cc(NCCC(O)c2ccccc2)c([N+](=O)[O-])c(N)n1 | - | - | - | EC50 | H37Rv | >12.5 µg/mL
COc1ccc(OC)c(CCNCCNCCC2=CCCCC2)c1 | - | - | - | MIC | - | 12.5 µM
CN(CCN(C)c1ccc(N)cc1)c1ccc(N)cc1.O=S(=O)(O)O | - | - | - | MIC | H37Rv | 100 µg/mL
COc1ccc(CCNCCNC(C)CC(C)C)cc1OC | - | - | - | MIC | - | 50 µM
NC(=S)Nc1cccc(O)c1 | - | - | - | MIC | H37Rv | >100 µg/mL
OCc1ccccc1Sc1ccccc1CNCCNCc1ccc(C(F)(F)F)cc1 | - | - | - | MIC | - | 25 µM
CO[C@H]1/C=C/O[C@@]2(C)Oc3c(C)c(O)c4c(O)c(c(/C=N/N5CCN(C/C=C/c6ccccc6)CC5)c(O)c4c3C2=O)NC(=O)/C(C)=C\C=C\[C@H](C)[C@H](O)[C@@H](C)[C@@H](O)[C@@H](C)[C@H](OC(C)=O)[C@@H]1C | - | - | - | MBC | 31 (rifampin-resistant) | 0.4 µg/mL
NC(=O)c1cccc2c1Oc1ccccc1S2 | - | - | - | MIC | H37Rv | 100 µg/mL
CC(C)=CCC/C(C)=C/CNCCNC1C2CC3CC(C2)CC1C3 | - | - | - | MIC | - | 6.25 µM
CC[C@H]1OC(=O)[C@H](C)[C@@H](O[C@H]2C[C@@](C)(OC)[C@@H](O)[C@H](C)O2)[C@H](C)[C@@H](O[C@@H]2O[C@H](C)C[C@H](N(C)C)[C@H]2O)[C@](C)(O)C[C@@H](C)CN(C)[C@H](C)[C@@H](O)[C@]1(C)O | - | - | - | MBC | ATCC 35822 | >8 µg/mL
CN(C)c1ccc(Cc2ccc(N(C)C)cc2)cc1 | - | - | - | MIC | H37Rv | >100 µg/mL
CCC[CH2][Sn]1([CH2]CCC)[O]C(=O)CN=C(C)c2ccccc2[O]1 | - | - | - | MIC | RMP-R | 12.5 µg/mL
CCCCC(CC)CN1CN(CC(CC)CCCC)CC(C)(NCCNCC(c2ccccc2)c2ccccc2)C1 | - | - | - | MIC | - | 25 µM
Cc1c(Cl)cc(Cl)cc1C(=O)c1ccccc1C(=O)O | - | - | - | MIC | H37Rv | 100 µg/mL
Clc1ccc(CCNCCNCCC(c2ccccc2)c2ccccc2)c(Cl)c1 | - | - | - | MIC | - | 12.5 µM
CCOC(=O)Nc1cc(NC(C)CCCN(CC)CC)c2ncc(-c3ccc(C(F)(F)F)cc3)nc2n1 | - | - | - | EC50 | H37Rv | <12.5 µg/mL
CC1CN(c2cc3c(cc2F)c(=O)c(C(=O)O)cn3-c2ccc(F)cc2F)CCN1 | - | - | - | MIC90 | MDR | >8 µg/mL
NNC(=O)NN1C(=O)c2cc(S(=O)(=O)[O-])cc3c(N)c(S(=O)(=O)[O-])cc(c23)C1=O | - | resazurin | - | MIC bound | H37Rv | >6.25 µg/mL
NC[C@H]1O[C@H](O[C@H]2[C@H](O)[C@@H](O[C@H]3O[C@H](CO)[C@@H](O)[C@H](N)[C@H]3O)[C@H](N)C[C@@H]2N)[C@H](O)[C@@H](O)[C@@H]1O | - | - | - | MIC | TN4728 (BN) | >256 µg/mL
Oc1ccc(CCNCCNCc2ccccc2F)cc1 | - | - | - | MIC | - | 50 µM
CC[C@H]1OC(=O)[C@H](C)[C@@H](O[C@H]2C[C@@](C)(OC)[C@@H](O)[C@H](C)O2)[C@H](C)[C@@H](O[C@@H]2O[C@H](C)C[C@H](N(C)C)[C@H]2O)[C@](C)(O)C[C@@H](C)C(=O)[C@H](C)[C@@H](O)[C@]1(C)O | - | - | - | MIC50 | Drug-resistant | >8 µg/mL
O=C(/C=C/c1ccccc1)c1ccccc1O | - | - | - | EC50 | H37Rv | <12.5 µg/mL
CC1(C)CN(CCO)C(C)(C)CN1 | 12.5 µg/mL | BACTEC | - | inhibition | H37Rv | 8%
COc1ccc2c(c1)CC1C(=O)OCC1C2c1ccc(O)c(OC)c1 | - | - | - | MIC | H37Rv | >100 µg/mL
FC(F)(F)c1ccc(CNCCNCCCCc2ccccc2)cc1 | - | - | - | MIC | - | 25 µM
O=C1NCCN1c1ncc([N+](=O)[O-])s1 | 6.25 µg/mL | resazurin | - | inhibition | H37Rv | -28%
Nc1ccc2c(=O)[nH][nH]c(=O)c2c1.O | - | - | - | MIC | H37Rv | >100 µg/mL
C1COC(CNCCNCC23CC4CC(CC(C4)C2)C3)C1 | - | - | - | MIC | - | 50 µM
CC(NCCNCC(c1ccccc1)c1ccccc1)c1cccc2ccccc12 | - | - | - | MIC | - | 6.25 µM
CCOC(=O)Nc1cc(NCc2ccc(S(=O)(=O)N(CC)CC)cc2)c(N)c(N)n1 | 12.5 µg/mL | - | - | inhibition | H37Rv | 0%
CC[C@H]1OC(=O)[C@H](C)[C@@H](O[C@H]2C[C@@](C)(OC)[C@@H](O)[C@H](C)O2)[C@H](C)[C@@H](O[C@@H]2O[C@H](C)C[C@H](N(C)C)[C@H]2O)[C@](C)(OC)C[C@@H](C)C(=O)[C@H](C)[C@@H](O)[C@]1(C)O | - | - | - | MIC90 | Drug-resistant | >8 µg/mL
COc1cc(C(=O)OC2CC34CCNC35CC(OC5(OC)C2O)c2cc3c(cc24)OCO3)ccc1O | 12.5 µg/mL | BACTEC | - | inhibition | H37Rv | 12%
CCOC(=O)Nc1cc(NCc2ccc(S(N)(=O)=O)cc2)c2ncc(C)nc2n1 | 12.5 µg/mL | - | - | inhibition | H37Rv | 0%
Cc1ccc2c(c1)N(CC(O)CO)C(C)CC2 | - | - | - | MIC | H37Rv | >100 µg/mL
O=C1CC(c2ccccc2O)Oc2ccccc21 | - | - | - | EC50 | - | >12.5 µg/mL
O=C(NNC(=O)c1ccc2ccccc2n1)c1ccc2ccccc2n1 | 12.5 µg/mL | BACTEC | - | inhibition | H37Rv | 69%
Nc1ccc(S(=O)(=O)O)cn1 | - | - | - | MIC | H37Rv | >100 µg/mL
COc1ccc2c(c1)n([O-])c1ccccc1[n+]2=O | - | - | - | MIC | PZA-R | 0.8 µg/mL
CO[C@H]1/C=C/O[C@@]2(C)Oc3c(C)c(O)c4c(O)c(c5c(c4c3C2=O)NC2(CCN(CC(C)C)CC2)N=5)=NC(=O)/C(C)=C\C=C\[C@H](C)[C@H](O)[C@@H](C)[C@@H](O)[C@@H](C)[C@H](OC(C)=O)[C@@H]1C | - | - | - | MIC | Isolate 900216 drug-susceptible | 0.063 µg/mL
COc1ccc(/C=N/NC(=O)c2ccncc2)cc1 | - | BACTEC | VERO | MIC | H37Rv | 0.002 µg/mL
CCOC(=O)/C(C#N)=C\N(C)c1ccccc1 | - | - | - | MIC | H37Rv | >100 µg/mL
O=C1OC2C3CC(C(C(=O)O)C13)C2N1C(=O)CCC1=O | - | BACTEC | - | MIC bound | H37Rv | >12.5 µg/mL
CC(=O)N(C)c1c(Br)cc(Br)c2c1C(=O)c1ccccc1C2=O | - | - | - | MIC | H37Rv | >100 µg/mL
O=C(Nc1ccccc1)SCCSC(=S)N1CCCC1 | - | BACTEC | - | MIC bound | H37Rv | >12.5 µg/mL
COc1ccc(Nc2ccnc(N)n2)cc1OC.Cl | - | - | - | MIC | H37Rv | 100 µg/mL
CC1(C)COC2(OC1)C1=NS(=O)(=O)CC13CCC2C3(C)C | 12.5 µg/mL | BACTEC | - | inhibition | H37Rv | 5%
Cc1ccc(O)cc1-c1cc(O)ccc1C | - | - | - | MIC | H37Rv | 25 µg/mL
COC(=O)[C@@H]1[C@H]2C[C@@H]3c4[nH]c5ccccc5c4CCN3C[C@@H]2CC[C@@H]1O | - | BACTEC | - | MIC | H37Rv | ≥12.8 µg/mL
CC(CNCCNCCC1=CCCCC1)c1ccccc1 | - | - | - | MIC | - | 50 µM
COc1cc(C(=O)O)cc2c1OCC(=O)N2 | 12.5 µg/mL | BACTEC | - | inhibition | H37Rv | -3%
OCc1ccccc1Sc1ccccc1CNCCNCc1cccc(F)c1 | - | - | - | MIC | - | 25 µM
Oc1c(Cl)c(N=Nc2nc3ccccc3s2)c(O)c2ccccc12 | 12.5 µg/mL | BACTEC | - | inhibition | H37Rv | 98%
CCOC(=O)N(C)N=O | - | - | - | MIC | H37Rv | >100 µg/mL
CCn1cc(C(=O)O)c(=O)c2ccc(-c3cn[nH]c3C)nc21 | - | BACTEC | - | MIC bound | H37Rv | >12.5 µg/mL
CO[C@H]1/C=C/O[C@@]2(C)Oc3c(C)c(O)c4c(O)c(c5c(c4c3C2=O)NC2(CCN(CC(C)C)CC2)N=5)=NC(=O)/C(C)=C\C=C\[C@H](C)[C@H](O)[C@@H](C)[C@@H](O)[C@@H](C)[C@H](OC(C)=O)[C@@H]1C | - | - | - | MIC | Strain 79 (H526L) | 0.063 µg/mL
CSC(SC)=C(C#N)C(=O)Nc1ccc(Cl)cc1 | 12.5 µg/mL | BACTEC | - | inhibition | H37Rv | 0%
CCCCC(CC)CN1CN(CC(CC)CCCC)CC(C)(NCCN[C@@H](CO)[C@@H](O)c2ccc(SC)cc2)C1 | - | - | - | MIC | - | 25 µM

The last 7 rows once more:

SMILES	dose	method	cell line	endpoint	strain	value
OCc1ccccc1Sc1ccccc1CNCCNCc1cccc(F)c1	-	-	-	MIC	-	25 µM
Oc1c(Cl)c(N=Nc2nc3ccccc3s2)c(O)c2ccccc12	12.5 µg/mL	BACTEC	-	inhibition	H37Rv	98%
CCOC(=O)N(C)N=O	-	-	-	MIC	H37Rv	>100 µg/mL
CCn1cc(C(=O)O)c(=O)c2ccc(-c3cn[nH]c3C)nc21	-	BACTEC	-	MIC bound	H37Rv	>12.5 µg/mL
CO[C@H]1/C=C/O[C@@]2(C)Oc3c(C)c(O)c4c(O)c(c5c(c4c3C2=O)NC2(CCN(CC(C)C)CC2)N=5)=NC(=O)/C(C)=C\C=C\[C@H](C)[C@H](O)[C@@H](C)[C@@H](O)[C@@H](C)[C@H](OC(C)=O)[C@@H]1C	-	-	-	MIC	Strain 79 (H526L)	0.063 µg/mL
CSC(SC)=C(C#N)C(=O)Nc1ccc(Cl)cc1	12.5 µg/mL	BACTEC	-	inhibition	H37Rv	0%
CCCCC(CC)CN1CN(CC(CC)CCCC)CC(C)(NCCN[C@@H](CO)[C@@H](O)c2ccc(SC)cc2)C1	-	-	-	MIC	-	25 µM